Measured values from several laboratories, pooled; numbers as filed in NIAID ChemDB.

Shared fields: host cell toxicity; endpoint: CC50

Rows are shuffled and stem from different studies.

Cn1c2ccccc2c2c3c(c4c5ccccc5n(CCC#N)c4c21)CNC3=O ; cell line: CD4+ T CELLS ; result: 31 µM
Cc1nc(Cl)c([N+](=O)[O-])c(N2CC[N+](C)(C)CC2)n1 ; cell line: GMK ; result: >483.6 µg/mL
C=CCSSCC=C ; cell line: HepG2 2.2.15 ; result: >100 µM
C[C@@H]1O[C@@H](OC[C@H]2O[C@@H](Oc3c(-c4ccc(O)c(O)c4)oc4cc(O)cc(O)c4c3=O)[C@H](O)[C@@H](O)[C@@H]2O)[C@H](O)[C@H](O)[C@H]1O ; cell line: HCT-8 ; result: >100 µM
Cc1nc(C2CCCCCC2)c([N+](=O)[O-])c(N2CC[N+]3(CC2)CC[N+]2(CCN(c4nc(C)nc(C5CCCCCC5)c4[N+](=O)[O-])CC2)CC3)n1 ; cell line: K562 ; result: >261.2 µg/mL
CC(C)CCC[C@@H](C)[C@H]1CC[C@H]2[C@@H]3[C@H](F)C(=O)[C@H]4C[C@@H](O)CC[C@]4(C)[C@H]3CC[C@]12C ; cell line: Vero cells ; read by: tetrazolium ; result: 40 µM
CCC1OC(=O)CC(O)C(C)C(OC2CC(N(C)C)C(OC3CC(C)(O)C(O)C(C)O3)C(C)O2)C(CC=O)CC(C)C(=O)/C=C/C2(C)OC2C1COC1OC(C)C(O)C(OC)C1OC ; cell line: HeLa ; result: 100 µg/mL
O=C(OC[C@H]1O[C@@H](OC(=O)c2cc(O)c(O)c(OC(=O)c3cc(O)c(O)c(O)c3)c2)[C@H](OC(=O)c2cc(O)c(O)c(OC(=O)c3cc(O)c(O)c(O)c3)c2)[C@@H](OC(=O)c2cc(O)c(O)c(OC(=O)c3cc(O)c(O)c(O)c3)c2)[C@@H]1OC(=O)c1cc(O)c(O)c(OC(=O)c2cc(O)c(O)c(O)c2)c1)c1cc(O)c(O)c(OC(=O)c2cc(O)c(O)c(O)c2)c1 ; cell line: HepG2 2.2.15 ; result: 17 µM
O=C(O[C@@H]1Cc2c(O)cc(O)cc2O[C@@H]1c1cc(O)c(O)c(O)c1)c1cc(O)c(O)c(O)c1 ; cell line: HCT-8 ; result: >100 µM
N[C@H]1[C@@H](O[C@@H]2[C@@H](O)[C@H](O[C@H]3OC[C@@H](O)[C@H](O)[C@H]3N)[C@@H](N)C[C@H]2N)O[C@H](CO)[C@@H](O)[C@@H]1O ; cell line: HeLa ; result: >100 µg/mL
[2H][C@@]1(O)C[C@H](n2cnc3c(N)nc(F)nc32)O[C@]1(C#C)CO ; cell line: MT4-GFP ; read by: luminescence ; result: >42 µM
CC(=O)O[C@H]1CC[C@@]2(C)C(=CC[C@H]3[C@@H]4CC[C@H]([C@H](C)CCCC(C)(C)O)[C@@]4(C)CC[C@@H]32)C1 ; cell line: Vero cells ; read by: tetrazolium ; result: >128 µM
O=c1cc(-c2ccc(O)cc2)oc2cc(O)cc(O)c12 ; cell line: HCT-8 ; result: >100 µM
C[C@H]1O[C@@H](n2ccc(NC(=O)c3ccc(NC(=O)[C@@](C)(N)CO)cc3)nc2=O)C[C@@H](O)[C@@H]1O[C@H]1O[C@H](C)[C@@H](N(C)C)[C@H](O)[C@H]1O ; cell line: HeLa ; result: 500 µg/mL
Cc1nc(N2CC[N+]3(CC2)CC[N+]2(CCN(c4nc(C)nc5c4no[n+]5[O-])CC2)CC3)c2c(no[n+]2[O-])n1 ; cell line: GMK ; result: >837.1 µg/mL
Nc1ncnc2c1ccn2[C@@H]1O[C@H](CO)[C@@H](O)[C@H]1O ; cell line: HeLa ; result: 200 µg/mL
CC(C)CCC[C@@H](C)[C@H]1CC[C@H]2[C@@H]3[C@H](F)[C@@H](O)[C@H]4C[C@@H](O)CC[C@]4(C)[C@H]3CC[C@]12C ; cell line: Vero cells ; read by: tetrazolium ; result: 41 µM
O=C1NC(=O)C(c2ccccc2)(c2ccccc2)N1 ; cell line: THP-1 ; result: >40 µg/mL
O=C1C[C@@H](c2ccc(O)cc2)Oc2cc(O)cc(O)c21 ; cell line: HCT-8 ; result: >100 µM
C[N+]1(C)CCN(c2ncnc(Cl)c2[N+](=O)[O-])CC1 ; cell line: GMK ; result: >500.5 µg/mL
C[C@@H]1O[C@@H](O[C@H]2C[C@@H](O)[C@]3(CO)[C@H]4[C@H](O)C[C@]5(C)[C@@H](C6=CC(=O)OC6)CC[C@]5(O)[C@@H]4CC[C@]3(O)C2)[C@H](O)[C@H](O)[C@H]1O ; cell line: HeLa ; result: <1 µg/mL
CC(C)CCC[C@@H](C)[C@H]1CC[C@H]2[C@@H]3C(=O)C=C4C[C@@H](O)CC[C@]4(C)[C@H]3CC[C@]12C ; cell line: Vero cells ; read by: tetrazolium ; result: 75 µM
[2H]C([2H])(O)[C@@]1(C#C)O[C@@H](n2ccc3c(N)nc(Cl)nc32)C[C@@H]1O ; cell line: MT4-GFP ; read by: luminescence ; result: >42 µM
C[C@@H]1CC[C@H]2[C@@H](C)C(=O)O[C@@H]3OC4(C)CC[C@@H]1[C@]32OO4 ; cell line: HepG2 2.2.15 ; result: 160 µM
O=C(CCCc1ccccc1)N1CC[N+]2(CC1)CC[N+]1(CCN(C(=O)CCCc3ccccc3)CC1)CC2 ; cell line: K562 ; result: 235.4 µg/mL
O=P(Oc1ccccc1)(Oc1ccccc1)Oc1ccccc1 ; cell line: HCT116 ; result: 70.7 µM
O=C1C(=O)c2ccccc2-c2ccccc21 ; cell line: HEP2 Cell Line ; read by: MTT / absorbance ; result: 10 µg/mL
O=c1c(-c2ccc(O)cc2)coc2cc(O)ccc12 ; cell line: HepG2 2.2.15 ; result: >100 µM
CC(=O)O[C@H]1CC[C@@]2(C)C(=CC(=O)[C@H]3[C@@H]4CC[C@H]([C@H](C)CCCC(C)C)[C@@]4(C)CC[C@@H]32)C1 ; cell line: Vero cells ; read by: tetrazolium ; result: >128 µM
[2H][C@]1(O)C[C@H](n2ccc3c(N)nc(Cl)nc32)O[C@]1(C#C)CO ; cell line: MT4-GFP ; read by: luminescence ; result: >42 µM
C[C@H](CCCC(C)(C)O)[C@H]1CC[C@H]2[C@@H]3CC=C4C[C@@H](O)CC[C@]4(C)[C@H]3CC[C@]12C ; cell line: Vero cells ; read by: tetrazolium ; result: >128 µM
[2H]C([2H])(O)[C@@]1(C#C)O[C@@H](n2cnc3c(N)nc(F)nc32)C[C@@H]1O ; cell line: MT4-GFP ; read by: luminescence ; result: >42 µM
Cc1cn([C@H]2C=C[C@@H](COP(=O)(O)O)O2)c(=O)[nH]c1=O ; cell line: CEM/TK- ; read by: MTT ; result: 411 µM
CCCCCCCCCCCC(=O)OC[C@H](COP(=O)([O-])OCC[N+](C)(C)C)OC(=O)CCCCCCCCCCC ; cell line: HeLa ; result: >200 µg/mL
[2H][C@]1(n2cnc3c(N)nc(F)nc32)C[C@H](O)[C@@](C#C)(CO)O1 ; cell line: MT4-GFP ; read by: luminescence ; result: >42 µM

Again, the opening 3 rows:

SMILES	cell line	read by	result
Cn1c2ccccc2c2c3c(c4c5ccccc5n(CCC#N)c4c21)CNC3=O	CD4+ T CELLS		31 µM
Cc1nc(Cl)c([N+](=O)[O-])c(N2CC[N+](C)(C)CC2)n1	GMK		>483.6 µg/mL
C=CCSSCC=C	HepG2 2.2.15		>100 µM

CCn is the concentration with n% toxicity to the cells. Blank or dashed fields: not listed here.